PubChem BioAssay AID1259414, Drosophila RNAi Screening Center, 2018
The screen tested about 24,000 reagents; below is an unselected part of those that have a named target and a result. Over the whole deposit, about 1,210 (5%) were called active. 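Inactive calls also include excluded dsRNAs with several or no targets, genes unexpressed in JW18, and well A1, regardless of score.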 The numbers tell different reagents against one gene apart. A plus sign joins genes that one reagent is predicted to hit. No sequences are given here.

Purpose: 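Host factors increasing or decreasing Wolbachia levels in cultured fly cells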 (primary screen)
System: Drosophila JW18 cells infected with Wolbachia
Reagent: long dsRNA against Drosophila genes, 0.25 µg dsRNA per well of a 384-well plate
Timing: 5 days
Treatment: cells persistently infected with Wolbachia before knock-down; no added drug
Detection: 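Automated imaging of bacterial rRNA staining divided by host cell count, reported as plate-normalised robust z-score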
Scale: Wolbachia per cell robust z: higher = more Wolbachia per host cell than the plate typical
Hit rule: 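Hit when robust z is 1.5 or more, or -1.5 or less, in at least two of three replicates; excludes dsRNAs with several or no targets, genes not expressed in JW18 and well A1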

target,dsRNA no.,"Wolbachia per cell robust z, rep 1","Wolbachia per cell robust z, rep 2","Wolbachia per cell robust z, rep 3",Call
BG642312,1,1.06,-4.63,1.38,inactive
Cyp6g2,1,1.53,1.05,0.79,inactive
Cyp6g2,2,-0.186,0.0196,-3.52,inactive
CG42789,1,0.356,-0.0634,1.04,inactive
Mppe,1,0.687,0.0464,-0.459,inactive
Amnionless,1,-0.645,-0.223,0.0396,inactive
CG18649,1,0.521,0.573,-0.216,inactive
CG8008,1,0.381,0.499,-0.193,inactive
CG8008,2,0.388,0.944,-2.27,inactive
CG8008,3,1.44,0.99,0.227,inactive
mEFTs,1,-0.133,-0.903,-1.45,inactive
mEFTs,2,-1.89,-0.109,0.415,inactive
Acbp1,1,0.393,-0.346,-1.44,inactive
Acbp1,2,-0.295,1.21,-0.506,inactive
CG7379,1,0.402,0.282,0.233,inactive
CG7379,2,0.192,-0.158,0.341,inactive
Ugt303B3,1,0.9,-1.59,0.972,inactive
Ugt303B3,2,1.09,0.132,-0.569,inactive
Ugt303B3,3,-1.99,-0.116,0.37,inactive
Fer1HCH,1,1.02,1.01,1.3,inactive
Fer1HCH,2,0.334,-0.277,0.767,inactive
CG32817 + CR18166 + CG3176,1,-0.802,-0.593,-0.261,inactive

Limited to “Wolbachia per cell robust z, rep 3” (2 entries from above):
Ugt303B3 #2	-0.569
Ugt303B3 #3	0.37

Additional records follow.
target,dsRNA no.,"Wolbachia per cell robust z, rep 1","Wolbachia per cell robust z, rep 2","Wolbachia per cell robust z, rep 3",Call
CG17786,1,-0.271,0.11,-1.39,inactive
CG17786,2,-0.684,-0.411,1.43,inactive
glec,1,0.852,0.185,0.412,inactive
glec,2,-1.17,-2.42,-1.9,active
CG6553,1,-3.99,-0.562,-0.0846,inactive
CG42404,1,1.86,1.99,0.389,active
TBC1D5,1,0.449,0.504,-0.371,inactive
TBC1D5,2,0.631,-0.59,0.533,inactive
Lam,1,0.726,1.67,1.17,inactive
Lam,2,0.668,0.758,0.388,inactive
CG4612,1,-2.1,-0.38,0.735,inactive
CG9062,1,-2.13,-1.01,-0.684,inactive
CG9062,2,-4.37,-2.39,-1.58,active
CG33460,1,-0.678,0.972,-0.0667,inactive
CG32536 + CG32537,1,0.531,0.504,1.04,inactive
CG10752,1,-0.678,0.726,0.847,inactive
Recs1,1,0.814,-6.41,0.203,inactive
Sr-CIII,1,-0.0536,-0.753,0.303,inactive
Sr-CIII,2,0.00475,-1.47,-0.0913,inactive
ea,1,0.901,-0.076,-0.0322,inactive
ea,2,-1.66,-2,-0.487,inactive
CG6938,1,0.674,1.19,0.5,inactive
CG6938,2,0.305,1.27,0.993,inactive
DAAM,1,-2.32,0.0438,0.25,inactive
